For this data set, the system named is HIV-1 reverse transcriptase (Human immunodeficiency virus 1). The data set can be described thus: activity assay. The conditions noted are these: purified recombinant protein, label: 5'-32P, single-stranded DNA.
Setting [1] is: intramolecular 3' extension with premature termination, data not shown.

Turning to “ATCCGCCTGATTAGCGATACTTACGTGAGCGTGCTGTCCCCTAAAGGTGATACGTCACTTGAGCAAAATCACCTGCAGGGG [RT26]”, the “activity on this sequence” value (intramolecular 3' extension, initiation nearly 100%, stops after 5-8 nt) was “active”. Regarding “ATCCGCCTGATTAGCGATACTTATTTGCCCTTGCAGGCCGCAGGAGTGCTAGCAGTACTTGAGCAAAATCACCTGCAGGGG [RT10]”, under setting [1], the “activity on this sequence” value is recorded as “active”. On the same count and under the same terms, under “ATCCGCCTGATTAGCGATACTCGTATAGGTCCCCTGCCGCTAAACAGCGCCGCGGTAACTTGAGCAAAATCACCTGCAGGGG [RT12]” stands “active”.
